Pooled drug test results. Numbers come from NIAID ChemDB, via PubChem.

Shared fields: tests in culture; agent: Hepatitis C virus; measure: EC50

ECn is the concentration giving n% inhibition of infection, replication or growth. An empty or dashed field is not shown. Conditions beyond the fields shown may differ between rows. Two numbers with a dash give a range or band.

SMILES | cells | strain or isolate | setting | value
COc1cc(Cc2cnc(/N=C3\C(=O)N(CN4CCN(c5cccc(C(F)(F)F)c5)CC4)c4ccc(F)cc43)nc2N)cc(OC)c1OC | Huh7 |  |  | <50 µg/mL
O=C(O)c1ccc2c(C3CCCCC3)c3n(c2c1)CCCc1ocnc1-3 |  | 1b |  | 10 µM
COC1=CC(=O)C[C@@H](C)[C@]12Oc1c(Cl)c(OC)cc(OC)c1C2=O | Huh7 | 1b |  | 6.13 µM
Nc1ccn([C@@H]2C[C@H](CO)[C@@H](O)[C@]2(O)CO)c(=O)n1 | Huh7 |  |  | 11.7 µg/mL
C=C[C@@H]1C[C@]1(NC(=O)[C@@H]1C[C@@H]2CN1C(=O)[C@H](C(C)(C)C)NC(=O)C[C@@H]1C[C@H]1CCCCCc1nc3ccc(OC)cc3nc1O2)C(=O)NS(=O)(=O)C1CC1 |  |  |  | 0.002 µM
CCC[C@H](NC(=O)[C@@H]1[C@@H](C(CC)CC)CCN1C(=O)[C@H](NC(=O)[C@H](NC(=O)c1cnccn1)C1CCCCC1)C(C)(C)C)C(=O)C(=O)NC1CC1 |  | Hepatitis C virus |  | >3 µM
C=CC1C[C@]1(NC(=O)[C@@H]1C[C@@H](Oc2cc(-c3ccccc3)nc3cc(OC)ccc23)CN1C(=O)[C@@H](NC(=O)OC(C)(C)C)C(C)(C)C)C(=O)NS(=O)(=O)c1ccc(Cl)s1 | Huh7 | BMS |  | 0.1–1 µM
CN(C)c1nc(=O)n2c3c1nnn3C[C@H]1OC2[C@H](O)[C@@H]1O | Huh7 |  |  | >100 µM
O=C(O)c1ccc2c(C3CCCCC3)c3n(c2c1)CCOc1cccnc1-3 |  | 1b |  | >10 µM
COc1cc(Cc2cnc(/N=C3\C(=O)N(CN4CCN(c5cccc(Cl)c5)CC4)c4ccc(F)cc43)nc2N)cc(OC)c1OC | Huh7 |  |  | <50 µg/mL
CNc1nc(=O)n2c3c1nnn3C[C@H]1OC2[C@H](O)[C@@H]1O | Huh7 |  |  | <6.25 µM
CCCC(NC(=O)[C@@H]1C[C@@H](OC(=O)N2CCc3ccccc3C2)CN1C(=O)[C@H](NC(=O)[C@H](NC(=O)c1cnccn1)C(C)C)C(C)C)C(=O)C(=O)N1CCC1 | Huh7 |  |  | 10.3 µM
COc1cc(Cc2cnc(/N=C3\C(=O)N(CN4CCN(c5cccc(C(F)(F)F)c5)CC4)c4ccc(C)cc43)nc2N)cc(OC)c1OC | Huh7 |  |  | <50 µg/mL
Nc1nc(=O)n2c3c1nnn3C[C@H]1OC2[C@H](O)[C@@H]1O | Huh7 |  |  | 10.9 µM
CC1(n2cc3c4c(ncnc42)N(CCO)N=C3N)O[C@H](CO)[C@@H](O)[C@H]1O | Huh7 |  |  | 200 µM
Nc1cc(N)cc(-c2ccc3c(CC(=O)O)cn(Cc4c(-c5cccc(Cl)c5)sc5ccccc45)c3c2)c1 |  |  |  | <10 µM
CCCC(NC(=O)[C@@H]1C2CCCC2CN1C(=O)[C@@H](NC(=O)[C@@H](NC(=O)Cc1nn[nH]n1)C1CCCCC1)C(C)(C)C)C(=O)C(=O)NC1CC1 |  |  |  | >50 µM
CO[C@@H]1[C@H](OP(=O)(NCCCCCC(=O)[O-])OC[C@H]2O[C@@H](n3ccc(N)nc3=O)[C@H](O)[C@@H]2O)[C@@H](CO)O[C@H]1n1cnc2c(=O)[nH]c(N)nc21 |  |  |  | 160 µM
N=C(N)c1ncn([C@@H]2O[C@H](CO)[C@@H](O)[C@H]2O)n1 |  |  |  | 1–100 µM
CCS(=O)(=O)C12CC1c1ccccc1-c1c(C3CCCCC3)c3ccc(C(=O)NS(=O)(=O)N(C)C)cc3n1C2 |  |  |  | 0.02–1 µM
CCCCCCCOc1ccc(N(C(=O)C(=O)OC)c2nc(-c3ccc(Cl)s3)cs2)cc1 |  |  |  | <1 µM
O=c1nc(NO)ccn1[C@@H]1O[C@H](CO)[C@@H](O)[C@H]1O | Huh7 replicon |  | 4 d | <5 µM
COC(=O)N[C@@H](C(=O)N1CCC[C@H]1c1ncc(-c2ccc(-c3ccc(-c4cnc([C@@H]5CCCN5C(=O)[C@H](NC(=O)OC)c5ccccc5)[nH]4)cn3)nc2)[nH]1)c1ccccc1 |  | 1b |  | 0.00001–0.000999 µM
COc1cc(Cc2cnc(/N=C3\C(=O)N(CN4CCCC4)c4ccc(F)cc43)nc2N)cc(OC)c1OC | Huh7 |  |  | <50 µg/mL
COC(=O)N[C@@H](C(=O)N1CCC[C@H]1c1ncc(-c2ccc(-c3ccc(-c4cnc([C@@H]5CCCN5C(=O)N5CCOCC5)[nH]4)cn3)cc2)[nH]1)c1ccccc1 |  | 1b |  | 0.00001–0.000999 µM
OCC1CCC(c2ccc3ncnc(Nc4ccc(C5CCOCC5)cc4)c3c2)O1 | Con1-SR | 1b |  | 0.29 µM
O=c1[nH]c(=O)n([C@H]2C[C@H](O)[C@@H](O)O2)cc1C#Cc1ccc2c3cccc4cccc(c5cccc1c52)c43 | Huh7.5 | JFH-1 |  | 0.107 µM
CCC[C@H](NC(=O)[C@@H]1[C@H]2CCC[C@H]2CN1C(=O)[C@@H](NC(=O)[C@@H](NC(=O)c1cnccn1)C1CCCCC1)C(C)(C)C)C(=O)C(=O)NC1CC1 |  |  |  | 0.334 µM
CCCCCOc1ccc(N(C(=O)C(OC(C)=O)c2ccccc2)c2nc(-c3cccnc3)cs2)cc1C(F)(F)F |  |  |  | <1 µM
CCN(CC)Cc1ccc(C(=O)N(CCc2ccccc2OC)C2CCNC2)cc1 | Huh7.5 | JFH-1 |  | 3.3 µM
COc1cc(Cc2cnc(/N=C3\C(=O)N(CN4CCN(c5ccccn5)CC4)c4ccc(C)cc43)nc2N)cc(OC)c1OC | Huh7 |  |  | <50 µg/mL
CCCC(NC(=O)[C@@H]1C2CCCC2CN1C(=O)[C@@H](NC(=O)[C@@H](NC(=O)Cc1nn[nH]n1)C(C)CC)C(C)(C)C)C(=O)C(=O)NC1CC1 |  |  |  | >50 µM
CCCC(NC(=O)[C@@H]1C[C@@H](OC(=O)N2CCc3ccccc3C2)CN1C(=O)[C@H](NC(=O)[C@H](NC(=O)c1cnccn1)C(C)C)C(C)C)C(=O)C(=O)NC1CCC1 | Huh7 |  |  | 10.2 µM
O=C(O)/C=C/c1ccc(NC(=O)C2(NC(=O)c3ccc4c(c3)nc(-c3ccoc3)n4C3CCCCC3)CCCC2)cc1 |  |  |  | 0.89 µM
COc1cc(Cc2cnc(/N=C3\C(=O)N(CN4CCN(c5cc6c(cc5F)c(=O)c(C(=O)O)cn6C5CC5)CC4)c4ccc(F)cc43)nc2N)cc(OC)c1OC | Huh7 |  |  | <50 µg/mL
CCCCN1N=C(N)c2cn(C3(C)O[C@H](CO)[C@@H](O)[C@H]3O)c3ncnc1c23 | Huh7 |  |  | 100 µM
C=C[C@@H]1C[C@]1(NC(=O)[C@@H]1C[C@@H](Oc2ncc(OC)c3ccc(Cl)cc23)CN1C(=O)[C@@H](NC(=O)OC(C)(C)C)C(C)(C)C)C(=O)NS(=O)(=O)C1CC1 | H77 |  |  | 0.0094 µM
CCCCCCCCCCCCCCCCCCOCCOP(=O)(O)CO[C@H](COC)Cn1cnc2c(N)ncnc21 |  | K50N mutant |  | 7.07 µM
C=CC1C[C@]1(NC(=O)[C@@H]1C[C@@H](Oc2cc(-c3ccccc3)nc3cc(OC)ccc23)CN1C(=O)[C@@H](NC(=O)OC(C)(C)C)C(C)(C)C)C(=O)NS(=O)(=O)c1ccc(-c2cc(C(F)(F)F)nn2C)s1 | Huh7 | BMS |  | 0.1–1 µM
CO[C@H](C(=O)N1CCC[C@H]1c1ncc(-c2ccc(-c3ccc(-c4cnc([C@@H]5CCCN5C(=O)[C@H](OC)c5ccccc5)[nH]4)cn3)cc2)[nH]1)c1ccccc1 |  | 1b |  | 0.00001–0.000999 µM
CCN(CC)CN1C(=O)/C(=N\c2ncc(Cc3cc(OC)c(OC)c(OC)c3)c(N)n2)c2cc(F)ccc21 | Huh7 |  |  | <50 µg/mL
COc1cc(Cc2cnc(/N=C3\C(=O)N(CN4CCN(c5ccc6c(c5F)c(=O)c(C(=O)O)cn6C5CC5)CC4)c4ccc(C)cc43)nc2N)cc(OC)c1OC | Huh7 |  |  | <50 µg/mL
CCC[C@H](NC(=O)[C@@H]1[C@@H](Cc2ccccc2)CCN1C(=O)[C@H](NC(=O)[C@H](NC(=O)c1cnccn1)C1CCCCC1)C(C)(C)C)C(=O)C(=O)NC1CC1 |  | Hepatitis C virus |  | 1.1 µM
N=C1Sc2ccccc2C2=NCCCN12 |  | H77 |  | 11 µM
CCCCCOc1ccc(N(C(=O)COC(C)=O)c2nc(-c3ccc(F)c(F)c3)cs2)cc1C(F)(F)F |  |  |  | <1 µM
COC(=O)N[C@@H](C(=O)N1CCC[C@@H]1C1=NCC(c2cnc(-c3ccc(-c4cnc([C@H]5CCCN5C(=O)[C@H](NC(=O)OC)c5ccccc5)[nH]4)c(F)c3)nc2)=N1)c1ccccc1 |  | 1b |  | 0.00001–0.000999 µM
C=CC1C[C@]1(NC(=O)[C@@H]1C[C@@H](Oc2cc(-c3ccccc3)nc3cc(OC)ccc23)CN1C(=O)[C@@H](NC(=O)OC(C)(C)C)C(C)(C)C)C(=O)NS(=O)(=O)c1c(C)noc1C | Huh7 | BMS |  | 0.1–1 µM
O=C(N[C@@H](C(=O)N1CCC[C@H]1C(=O)Nc1nc(-c2ccccc2)cs1)c1ccccc1)C1CC1 | Con-1 | genotype 1b |  | 0.0041 µM
CCC[C@H](NC(=O)[C@@H]1[C@@H](C2CCCC2)CCN1C(=O)[C@H](NC(=O)[C@H](NC(=O)c1cnccn1)C1CCCCC1)C(C)(C)C)C(=O)C(=O)NC1CC1 |  | Hepatitis C virus |  | 2.9 µM
COC(=O)N[C@H](C(=O)N1C(c2ncc(-c3ccc(-c4ccc(C5=NC(C6C[C@@H]7C[C@@H]7N6C(=O)[C@@H](NC(=O)OC)C(C)C)=NC5)cc4)cc3)[nH]2)C[C@@H]2CC21)C(C)C |  | 1b |  | 0.001–0.099 µM
C=CC1C[C@]1(NC(=O)[C@@H]1C[C@@H](Oc2cc(-c3ccccc3)nc3cc(OC)ccc23)CN1C(=O)[C@@H](NC(=O)OC(C)(C)C)C(C)(C)C)C(=O)NS(=O)(=O)c1sc(C)nc1C | Huh7 | BMS |  | 0.1–1 µM
COc1cccc(N2CCN(CN3C(=O)/C(=N\c4ncc(Cc5cc(OC)c(OC)c(OC)c5)c(N)n4)c4cc(C)ccc43)CC2)c1 | Huh7 |  |  | <50 µg/mL
C=CC1C[C@]1(NC(=O)[C@@H]1C[C@@H](Oc2cc(-c3ccccc3)nc3cc(OC)ccc23)CN1C(=O)[C@@H](NC(=O)OC(C)(C)C)C(C)(C)C)C(=O)NS(=O)(=O)c1cc(Cl)c(Cl)s1 | Huh7 | BMS |  | 0.1–1 µM
COc1cc(Cc2cnc(/N=C3\C(=O)N(CN4CCNCC4)c4ccc(C)cc43)nc2N)cc(OC)c1OC | Huh7 |  |  | <50 µg/mL
COc1ccc2c(O[C@@H]3C[C@H]4C(=O)N[C@]5(C(=O)NS(=O)(=O)C6CC6)C[C@H]5/C=C\CCCCCCC(=O)N4C3)cc(-c3nccs3)nc2c1C |  |  |  | 0.018 µM
CC(C)COc1ccc(N(C(N)=O)c2nc(-c3ccc4c(c3)NC(=O)CO4)cs2)cc1C(F)(F)F |  |  |  | <1 µM
COc1cc(Cc2cnc(/N=C3\C(=O)N(CN4CCN(c5c(OC)cc6c(c5F)c(=O)c(C(=O)O)cn6C5CC5)CC4C)c4ccc(C)cc43)nc2N)cc(OC)c1OC | Huh7 |  |  | <50 µg/mL

For reference, 5 entries again:

| SMILES | cells | strain or isolate | setting | value |
|---|---|---|---|---|
| CC(C)COc1ccc(N(C(N)=O)c2nc(-c3ccc4c(c3)NC(=O)CO4)cs2)cc1C(F)(F)F |  |  |  | <1 µM |
| COc1cc(Cc2cnc(/N=C3\C(=O)N(CN4CCN(c5cccc(C(F)(F)F)c5)CC4)c4ccc(C)cc43)nc2N)cc(OC)c1OC | Huh7 |  |  | <50 µg/mL |
| O=c1[nH]c(=O)n([C@H]2C[C@H](O)[C@@H](O)O2)cc1C#Cc1ccc2c3cccc4cccc(c5cccc1c52)c43 | Huh7.5 | JFH-1 |  | 0.107 µM |
| C=CC1C[C@]1(NC(=O)[C@@H]1C[C@@H](Oc2cc(-c3ccccc3)nc3cc(OC)ccc23)CN1C(=O)[C@@H](NC(=O)OC(C)(C)C)C(C)(C)C)C(=O)NS(=O)(=O)c1c(C)noc1C | Huh7 | BMS |  | 0.1–1 µM |
| CN(C)c1nc(=O)n2c3c1nnn3C[C@H]1OC2[C@H](O)[C@@H]1O | Huh7 |  |  | >100 µM |